Patent US20120035221A1, “Method of Fungal Pathogen Control in Grass or Turf” (priority 2004, published 2012)

Test system: grass
Test: Grass pot trial, dry weight and visual vigor under powdery mildew (Example 3)
Type: in vivo
Details: 2 WAT harvest, versus untreated, in words
Text: Six-inch (15-cm) diameter pots were filled to the rim with ProMix® BX potting soil and leveled off. Grass seed (0.5 g) was distributed evenly over the whole mix surface. The seed was watered in very gently. The grass was fertilized once 17 days later with Peters 20-10-20 at 100 ppm. The first cut was done on 11 days later; the grass was allowed to re-grow and cut 26 days later. Cutting was done at 2 in. (5 cm) height, using a round plastic cylinder that fit over the pot. The cut was made with hedge sheers and finished with scissors. Treatments were applied one day later using a volume of 20 ml per pot, followed with 117 ml of water/pot. The grass clippings were harvested an.d dried for dry weight determination 2 weeks after treatment (“WAT”) and 4 WAT. The grass was rated visually for vigor 8 WAT, using a 1 to 5 scale, before harvesting at the soil line. Dry weight and vigor data were subjected to analysis of variance (Fisher's Protected LSD, P=0.05).
The grass had germinated well within 30 days. Powdery mildew was noticed on some plants at 43 days after seeding, and became widespread in the plot. The powdery mildew coating appeared to grow more densely on the untreated plants. […] The invasion of the powdery mildew prevented the assessment of imidacloprid in the absence of pest pressure but it was serendipitously discovered that imidacloprid could have an effect on disease resistance in turf.

## O=[N+]([O-])NC1=NCCN1Cc1ccc(Cl)nc1 [imidacloprid]
  dry weights of grass clippings: significantly improved in two of the imidacloprid treatments
